A mixed list of measured activities; the numbers were collected in NIAID ChemDB.

Shared fields: whole-cell or culture tests; agent: Candida albicans; measure: MIC

Conditions beyond the fields shown may differ between rows. Blank or dashed fields: not listed here.

compound,strain or isolate,conditions,value
CCCCCCCCCON1C(N)=NC(N)=NC1(C)C,-,-,>60 µg/mL
Fc1ccc(OC(CCn2ccnc2)c2ccccc2)c(F)c1,20 strains,-,44.2 µg/mL
CC(C)N=C(N)c1ccc2nc(-c3ccc4c(c3)Cc3cc(-c5nc6ccc(C(N)=NC(C)C)cc6[nH]5)ccc3-4)[nH]c2c1,Isolate CA2256 fluconazole-resistant,-,1.56 µg/mL
OCCn1sc2ccccc2c1=S,-,-,5 µg/mL
COC1CC2CCC(C)C(O)(O2)C(=O)C(=O)N2CCCCC2C(=O)OC(C(C)CC2CCC(O)C(OC)C2)CC(=O)C(C)/C=C(\C)C(O)C(OC)C(=O)C(C)C[C@](C)(N(O)C(=O)NN2CCCCC2)/C=C/C=C/C=C/1C,RBP1/RBP1,-,>100 µg/mL
Clc1ccc(C(CCn2ccnc2)Oc2ccc(Cl)cc2Cl)cc1,20 strains,-,2.1 µg/mL
c1ccc(C(Cn2ccnc2)OCc2cccc3ccccc23)cc1,PR1,-,128 µg/mL
NC(=NCc1ccccc1)c1ccc2nc(-c3ccc4oc(-c5ccccc5)cc(=O)c4c3)[nH]c2c1,ATCC 10231,-,6.25 µg/mL
CCCCCCCCCCON1C(N)=NC(N)=NC1(C)C,-,-,30 µg/mL
Clc1ccc(C(Cn2ccnc2)OCc2cccc3ccccc23)c(Cl)c1,CA6,-,2 µg/mL
Nc1[nH]c(=O)ncc1F,2659,-,0.13 µg/mL
CCCSc1ccnc(C(N)=S)c1,ATCC 44859,-,500 µM
O=c1c2ccccc2sn1CCCO,-,-,10 µg/mL
CCCON1C(N)=NC(N)=NC1(C)C,-,-,>60 µg/mL
CC1C=C(C23CC4CC(CC(C4)C2)C3)C(=O)O1,ATCC 44859,-,>125 µM
C[C@H]1[C@H](O)[C@@H](C)/C=C/C=C/C=C/C=C/C=C/C=C/C=C/[C@H](O[C@@H]2O[C@H](C)[C@@H](O)[C@H](N)[C@@H]2O)C[C@@H]2O[C@](O)(C[C@@H](O)C[C@@H](O)CC[C@H](O)[C@@H](O)C[C@@H](O)CC(=O)O[C@H]1C)C[C@H](O)[C@H]2C(=O)O,ATCC28366,-,0.125 µg/mL
CCCCCCOc1ccc(CON2C(N)=NC(N)=NC2(C)C)cc1,-,-,30 µg/mL
O=c1c2ccccc2sn1CCO,-,-,10 µg/mL
NC(=NC1CCCCC1)c1ccc2nc(-c3ccc4oc(-c5ccccc5)cc(=O)c4c3)[nH]c2c1,ATCC 10231,-,12.5 µg/mL
O=c1c2sc3c(=O)n(Cc4ccccc4)c(=O)c3sc2c(=O)n1Cc1ccccc1,ATCC 90028,-,3.2 µg/mL
C/C1=C\C=C\C(C)C(C(C)CCC/C=C/CCCNC(N)=O)OC(=O)/C=C\C=C\C(C)C(O)CC(O)C(C)C(O)CCC(C)C(O)CC2(O)OC(CC(OC(=O)CC(=O)O)CC(O)CC(O)CC1O)CC(O)C2O,ATCC 10231,-,>100 µg/mL
Cc1ccc([C@@H](CCn2ccnc2)Oc2ccc(Cl)cc2Cl)cc1,20 strains,-,2.65 µg/mL
CCCCCSc1ccnc(C(N)=S)c1,ATCC 44859,-,500 µM
CC1N=C(N)N=C(N)N1OCc1ccc(Cl)c(Cl)c1,-,-,>250 µg/mL
CCC1C=C(c2ccc(Cl)cc2)C(=O)O1,ATCC 44859,-,>125 µM
Clc1ccc(OC(CCn2ccnc2)c2ccccc2)c(Cl)c1,20 strains,-,5.25 µg/mL
CCCCCCCCCCCCCCON1C(N)=NC(N)=NC1(C)C,-,-,15 µg/mL
CCC(C)[C@@]1(C(=O)OC)C[C@H](C(=O)OC)[C@H](c2ccccc2)N1C(=S)NC(=O)c1ccccc1,ATCC 90028,-,50 µg/mL
C(=C\c1ccccc1)/COC(Cn1ccnc1)c1ccccc1,5M,-,128 µg/mL
CCCCn1c(=O)c2sc3c(=O)n(CCCC)c(=O)c3sc2c1=O,ATCC 90028,-,1.6 µg/mL
CC(CO)n1sc2ccccc2c1=O,-,-,10 µg/mL
Cc1cc(=O)c2cc(-c3nc4ccc(C(N)=NC(C)C)cc4[nH]3)ccc2o1,ATCC 10231,-,25 µg/mL
COC(=O)[C@@H]1[C@H](C(=O)OC)[C@H](c2cccc3ccccc23)N(C(=S)NC(=O)c2ccccc2)[C@@H]1C(=O)OC,ATCC 90028,-,50 µg/mL
OCCN=c1ssc2ccccc12,-,-,5 µg/mL
CCCSc1ccc2nc(NC(=O)OC)[nH]c2c1,92-1341,24 h,5 µg/mL
CC1C=C(c2ccc(Cl)cc2Cl)C(=O)O1,ATCC 44859,-,>125 µM
CCCCON1C(N)=NC(N)=NC1(C)C,-,-,>60 µg/mL
CCC(C)Sc1ccnc(C(N)=S)c1,ATCC 44859,-,250 µM
CC(N1CCN(c2ccc(-n3cnnn3)cc2)C1=O)[C@](O)(Cn1cncn1)c1ccc(F)cc1F,Azole-resistant,-,2 µg/mL
CC(C)n1c(=O)c2sc3c(=O)n(C(C)C)c(=O)c3sc2c1=O,ATCC 90028,-,0.8 µg/mL
CC(C)(C)c1ccc(COC(Cn2ccnc2)c2ccccc2)cc1,PR1,-,128 µg/mL
CC(C)N=C(N)c1ccc2nc(-c3ccc(-c4cc(=O)c5ccccc5o4)s3)[nH]c2c1,ATCC 10231,-,12.5 µg/mL
CCC1C=C(c2cccnc2)C(=O)O1,ATCC 44859,-,31.25 µM
Clc1ccc(C(Cn2ccnc2)OCc2ccc(-c3ccccc3)cc2)cc1,CDCB385,-,128 µg/mL
COc1ccc(C2=CC(C)OC2=O)cc1,ATCC 44859,-,>125 µM
COC(=O)[C@H]1C[C@](C(=O)OC)(c2ccccc2)N(C(=S)NC(=O)c2ccccc2)[C@H]1c1ccccc1,ATCC 90028,-,100 µg/mL
COC1CC2CCC(C)C(O)(O2)C(=O)C(=O)N2CCCCC2C(=O)OC(C(C)CC2CCC(O)C(OC)C2)CC(=O)C(C)/C=C(\C)[C@@](O)(c2ccc(C)s2)C(OC)C(=O)C(C)CC(C)/C=C/C=C/C=C/1C,RBP1/RBP1,-,>100 µg/mL
CC(CCCCCCON1C(N)=NC(N)=NC12CCCCC2)c1ccccc1,-,-,>60 µg/mL
CC1C=C(c2cccc(F)c2)C(=O)O1,ATCC 44859,-,>125 µM

7 of the rows above, restated:

compound	strain or isolate	conditions	value
C/C1=C\C=C\C(C)C(C(C)CCC/C=C/CCCNC(N)=O)OC(=O)/C=C\C=C\C(C)C(O)CC(O)C(C)C(O)CCC(C)C(O)CC2(O)OC(CC(OC(=O)CC(=O)O)CC(O)CC(O)CC1O)CC(O)C2O	ATCC 10231	-	>100 µg/mL
CC1C=C(c2cccc(F)c2)C(=O)O1	ATCC 44859	-	>125 µM
Clc1ccc(C(Cn2ccnc2)OCc2ccc(-c3ccccc3)cc2)cc1	CDCB385	-	128 µg/mL
CCCCON1C(N)=NC(N)=NC1(C)C	-	-	>60 µg/mL
CCC(C)[C@@]1(C(=O)OC)C[C@H](C(=O)OC)[C@H](c2ccccc2)N1C(=S)NC(=O)c1ccccc1	ATCC 90028	-	50 µg/mL
CCCSc1ccnc(C(N)=S)c1	ATCC 44859	-	500 µM
COc1ccc(C2=CC(C)OC2=O)cc1	ATCC 44859	-	>125 µM